± gives the uncertainty stated by the source.
Experiments:
[1] = tested on: KeratinoSens (HaCaT ARE-luciferase) cells; assay: cytotoxicity AC50 (CellTiter-Fluor viability); higher = less cytotoxic; settings: exposure time: 24 h
THP-1 = assay: efficacy of IL-8 induction relative to DMSO (% activity); higher = stronger induction; settings: exposure time: 18 h
[2] = tested on: lysine peptide Ac-RFAAKAA-COOH; assay: efficacy of lysine peptide change (negative = depletion) (% activity); higher = less depletion; settings: incubation time: 24 h
[3] = tested on: cysteine peptide Ac-RFAACAA-COOH; assay: efficacy of cysteine peptide change (negative = depletion) (% activity); higher = less depletion; settings: incubation time: 24 h
[4] = tested on: KeratinoSens (HaCaT ARE-luciferase) cells; assay: efficacy of ARE luciferase induction relative to DMSO (% activity over DMSO); higher = stronger induction; settings: exposure time: 24 h

C[CH2][Sn]([Br])([CH2]C)[CH2]C [Triethyltin bromide]
cytotoxicity AC50 [1]: 4.85 ± 0.67 µM
efficacy of IL-8 induction (THP-1): 14.6 ± 1.1
efficacy of lysine peptide change [2]: 0.35 ± 9
efficacy of cysteine peptide change [3]: 6.72 ± 18
efficacy of ARE luciferase induction [4]: -11.8 ± 49

Reference: the supplement of paper PMC10933113
